# This is one part of the list. Env chains of viruses from a treatment-interruption trial, translated from the printed DNA. IC50 / IC80 of two broadly neutralizing antibodies; lower = more sensitive virus; >50 µg/ml means not reached and <0.001 µg/ml is below the lowest dose. No active / inactive call.
# B1: HIV-1 Env, rebound clone, placebo arm (protein)
# chain: MIVMGMKRNWQQWWRGGILLLGMLMMICSAEDNAWVTVYYGVPVWREANVTLFCASDAKAYDTEVHNVWATHACVPTDPSPQEIKLENVTENFNMWKNDMVEQMHEDIISLWDQSLKPCVKLTPLCVTLNCTDYLGSNATNSTSGNNGTISNNITIEDSEKGEIKNCSFNVTTGIRDKMNKEYALLYKTDLVSIDNDNTSYRLISCNTSVITQACPKVTFEPIPIHYCAPAGFAILKCKDKKFNGTGPCKNVSTVQCTHGIRPVVSTQLLLNGSLAEEDVVIRSANFTNNAKVIIVQLNETVEINCTRPNNNTRKGINIGPGRAWYTIKDIVGDIRQAHCNISRPKWNRALEKIVEKLREQFGVNKTIVFNQSSGGDPEIVMHHFNCQGEFFYCNTTGLFNTRWNGTWNDTAGQGNNETITLPCRIRQIVNLWQEVGKAMYAPPIRGYINCSSNITGLLLVRDGGIKNSTNDTDNNTEIFRPGGGDMRDNWRSELYKYKVVQVEPVGIAPTRAKRRVVQREKRAVTLGAMFLGFLGTAGSTMGAASLTLTVQVRQLLSGIVQQQNNLLRAIEAQQHLLQLTVWGIKQLQARVLAVERYLRDQQILGIWGCSGKLICTTAVPWNTSWSNKSVDHIWGNMTWMQWEREIENYTGVIYKLLEESQNQQEKNEQDLLELDKWASLWTWFDITHWLWYIRLFIMIVGGLIGLRIVFAVFSLVNRVRQGYSPLSFQTHLPAPRGPDRPEGIEEEGGEPDRGRSVRLVNGFLALIWDDLRSLCLFSYHRLRDLLLIVTRIVELLGRRGWEAIKYLWNLLQYWSQELKNSAVSLLNAFAIAVAEGTDRVIEIIQGAFRAIIHIPRRIRQGLERSLL
# B2: HIV-1 Env, rebound clone, placebo arm (protein)
# chain: MKVKGTRMNWQHLWRWGTLMLGLVIICKASNTNLWVTVYYGVPAWEDADTTLFCASDAKAYSTEKHNVWATHACVPTDPNPQEISLPNVTENFDMWKNNMVEQMHEDIISLWDESLKPCVKLTPLCVTLTCSDINITNSSNTTITNGNNSMVDPEEIKNCTFNMTTEIIDKKKKEFALFYKLDIVQINNGNDSKDYRLINCNVSTIKQACPKVSFEPIPIHYCAPAGFAILKCKDKNFNGTGPCKNVSTVQCTHGIKPVVSTQLLLNGSLAEEGIVIRTKNITDNGNNIIVHLNESITINCTRPNNNTRKSIHLGQGQAFYATGAIIGDIRQAHCNVSGSQWINMIKRVAGKLKGVFSKNVTFNSSAGGDLEITTHSFNCGGEFFYCNTSNLFNSSILTSNNTNENITLPCKIRQIVRMWQTVGQAMYAPPIAGSIICTSNITGLILTRDGGSNETNGTDTFRPGGGNMKDNWRSELYKYKVVRIKPLGIAPTKARRRVVGREKRAIGVLGAALLGFLGTAGSTMGAASITLTVQVRQLLSGIVQQQSNLLRAIEAQQHLLQLTVWGIKQLQARVLAVERYLRDQQLLGIWGCSGKLICTTNVPWNASWSNKSYEEIWDNMTWIQWDREIDNYTQLIYSLIEESQNQQEKNEQDLLALDKWTSLWSWFDISNWLWYIRIFIIIVGGLIGLRIVFAVLSIVNRVRQGYSPLSLQTLLPHPPEADRPGEIEEGGGEQGRTRSIRLVNGFLALAWDDLRNLCLFLYHHLRDFILTAARTVETLGHRGWEILKYLGNLLCYWGQELKNSVITLLDTTAIAVGNWTDRFIELGQRVVRAVLHIPRRVRQGLERALL
# B3: HIV-1 Env, rebound clone, placebo arm (protein)
# chain: MKVKGTRMNWQHLWRWGTLMLGLVIICKASNTNLWVTVYYGVPAWEDADTTLFCASDAKAYSTEKHNVWATHACVPTDPNPQEISLPNVTENFDMWKNNMVEQMHEDIISLWDESLKPCVKLTPLCVTLTCSDINITNSSNTTITNGNNSMVDPEEIKNCTFNMTTEIIDKKKKEFALFYKLDIVQINNGNDSKDYRLINCNVSTIKQACPKVSFEPIPIHYCAPAGFAILKCKDKNFNGTGPCKNVSTVQCTHGIKPVVSTQLLLNGSLAEEDIVIRTKNITDNGNNIIVHLNESITINCTRPNNNTRKSIHLGQGQAFYATGAIIGDIRQAHCNVSGSQWINMIKRVAGKLKGVFSKNVTFNSSAGGDLEITTHSFNCGGEFFYCNTSNLFNSSILTSNNTNENITLPCKIRQIVRMWQTVGQAMYAPPIAGSIICTSNITGLILTRDGGSNETNGTDTFRPGGGNMKDNWRSELYKYKVVRIKPLGIAPTKARRRVVGREKRAIGVLGAALLGFLGTAGSTMGAASITLTVQVRQLLSGIVQQQSNLLRAIEAQQHLLQLTVWGIKQLQARVLAVERYLRDQQLLGIWGCSGKLICTTNVPWNASWSNKSYEEIWDNMTWIQWDREIDNYTQLIYSLIEESQNQQEKNEQDLLALDKWTSLWSWFDISNWLWYIRIFIIIVGGLIGLRIVFAVLSIVNRVRQGYSPLSLQTLLPHPSEADRPGEIEEGGGEQGRTRSIRLVNGFLALAWDDLRNLCLFLYHHLRDFILTAARTVETLGHRGWEILKYLGNLLCYWGQELKNSVITLLDTTAIAVGNWTDRFIELGQRVVRAVLHIPRRVRQGLERALL
# B4: HIV-1 Env, rebound clone, placebo arm (protein)
# chain: MKVKGTRMNWQHLWRWGTLMLGLVIICKASNTNLWVTVYYGVPAWEDADTTLFCASDAKAYSTEKHNVWATHACVPTDPNPQEISLPNVTENFDMWKNNMVEQMHEDIISLWDESLKPCVKLTPLCVTLTCSDINITNSSNTTITNGNNSMVDPEEIKNCTFNMTTEIIDKKKKEFALFYKLDIVQINNGNDSKDYRLINCNVSTIKQACPKVSFEPIPIHYCAPAGFAILKCKDKNFNGTGPCKNVSTVQCTHGIKPVVSTQLLLNGSLAEEDIVIRTKNITDNGNNIIVHLNESITINCTRPNNNTRKSIHLGQGQAFYATGAIIGDIRQAHCNVSGSQWINMIKRVAGKLKGVFSKNVTFNSSAGGDLEITTHSFNCGGEFFYCNTSNLFNSSILTSNNTNENITLPCKIRQIVRMWQTVGQAMYAPPIAGSIICTSNITGLILTRDGGSNETNGTDTFRPGGGNMKDNWRSELYKYKVVRIKPLGIAPTKARRRVVGREKRAIGVLGAALLGFLGTAGSTMGAASITLTVQVRQLLSGIVQQQSNLLRAIEAQQHLLQLTVWGIKQLQARVLAVERYLRDQQLLGIWGCSGKLICTTNVPWNASWSNKSYEEIWDNMTWIQWDREIDNYTQLIYSLIEESQNQQEKNEQDLLALDKWTSLWSWFDISNWLWYIKIFIIIVGGLIGLRIVFAVLSIVNRVRQGYSPLSLQTLLPHPPEADRPGKIEEGGGEQGRTRSIRLVNGFLALAWDDLRNLCLFLYHHLRDFILTAARTVETLGHRGWEILKYLGNLLCYWGQELKNSVITLLDTTAIAVGNWTDRFIELGQRVVRAVLHIPRRVRQGLERALL
# B5: HIV-1 Env, rebound clone, placebo arm (protein)
# chain: MIVMGMKRNWQQWWRGGILLLGMLMMICSAEDNAWVTVYYGVPVWREANVTLFCASDAKAYDTEVHNVWATHACVPTDPSPQEIKLENVTENFNMWKNDMVEQMHEDIISLWDQSLKPCVKLTPLCVTLNCTDYLGSNATNSTSGNNGTISNNITIEDSEKGEIKNCSFNVTTGIRDKMNKEYALLYKTDLVSIDNDNTSYRLISCNTSVITQACPKVTFEPIPIHYCAPAGFAILKCKDKKFNGTGPCKNVSTVQCTHGIRPVVSTQLLLNGSLAEEDVVIRSANFTNNAKVIIVQLNETVEINCTRPNNNTRKGINIGPGRAWYTIKDIVGDIRQAHCNISRPKWNRALEKIVEKLREQFGVNKTIVFNQSSGGDPEIVMHHFNCQGEFFYCNTTGLFNTRWNGTWNDTWENYTAGQGNNEPITLPCRIRQIVNLWQEVGKAMYAPPIRGYINCSSNITGLLLVRDGGIKNSTNDTDNNTEIFRPGGGDMRDNWRSELYKYKVVQVEPVGIAPTRAKRRVVQREKRAVTLGAMFLGFLGTAGSTMGAASLTLTVQVRQLLSGIVQQQNNLLRAIEAQQHLLQLTVWGIKQLQARVLAVERYLRDQQILGIWGCSGKLICTTAVPWNTSWSNKSVDHIWGNMTWMQWEREIENYTGVIYKLLEESQNQQEKNEQDLLELDKWASLWTWFDITHWLWYIRLFIMIVGGLIGLRIVFAVFSLVNRVRQGYSPLSFQTHLPAPRGPDRPEGIEEEGGEPDRGRSVRLVNGFLALIWDDLRSLCLFSYHRLRDLLLIVTRIVELLGRRGWEAIKYLWNLLQYWSQELKNSAVSLLNAFAIAVAEGTDRVIEIIQGAFRAIIHIPRRIRQGLERSLL
# B6: HIV-1 Env, rebound clone, placebo arm (protein)
# chain: MIVMGMKRNWQQWWRGGILLLGMLMMICSAEDNAWVTVYYGVPVWREANVTLFCASDAKAYDTEVHNVWATHACVPTDPSPQEIKLENVTENFNMWKNDMVEQMHEDIISLWDQSLKPCVKLTPLCVTLNCTDYLGSNATNSTSGNNGTISNNITIEDSEKGEIKNCSFNVTTGIRDKMNKEYALLYKTDLVSIDNDNTSYRLISCNTSVITQACPKVTFEPIPIHYCAPAGFAILKCKDKKFNGTGPCKNVSTVQCTHGIRPVVSTQLLLNGSLAEEDVVIRSANFTNNAKVIIVQLNETVEINCTRPNNNTRKGINIGPGRAWYTIKDIVGDIRQAHCNISRPKWNRALEKIVEKLREQFGVNKTIVFNQSSGGDPEIVMHHFNCQGEFFYCNTTGLFNTRWNGTWNDTWENYTAGQGNNEPITLPCRIRQIVNLWQEVGKAMYAPPIRGYINCSSNITGLLLVRDGGIKNSTNDTDNNTEIFRPGGGDMRDNWRSKLYKYKVVQVEPVGIAPTRAKRRVVQREKRAVTLGAVFLGFLGTAGSTMGAASLTLTVQVRQLLSGIVQQQNNLLRAIEAQQHLLQLTVWGIKQLQARVLAVERYLRDQQILGIWGCSGKLICTTAVPWNTSWSNKSVDHIWGNMTWMQWEREIENYTGVIYKLLEESQNQQEKNEQDLLELDKWASLWTWFDITHWLWYIRLFIMIVGGLIGLRIVFAVFSLVNRVRQGYSPLSFQTHLPAPRGPDRPEGIEEEGGEPDRGRSVRLVNGFLALIWDDLRSLCLFSYHRLRDLLLIVTRIVELLGRRGWEAIKYLWNLLQYWSQELKNSAVSLLNAFAIAVAEGTDRVIEIIQGAFRAIIHIPRRIRQGLERSLL
# Biological target: antibody 10-1074
# Assay: neutralization IC50; higher = virus less sensitive to the antibody
# Description: (§1)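 Pseudovirus bearing the Env chain mixed with antibody, from 50 µg/ml in fivefold dilutions, on TZM-bl reporter cells, in duplicate.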
row,Binder,neutralization IC50
1,B1,0.218 µg/mL
2,B2,0.003 µg/mL
3,B3,0.012 µg/mL
4,B4,0.013 µg/mL
5,B5,0.156 µg/mL
6,B6,0.039 µg/mL

# Biological target: antibody 3BNC117
# Assay: as above
# Description: as §1
row,Binder,neutralization IC50
1,B1,0.259 µg/mL
2,B2,0.223 µg/mL
3,B3,0.208 µg/mL
4,B4,0.158 µg/mL
5,B5,0.322 µg/mL
6,B6,0.055 µg/mL

# Biological target: antibody 10-1074
# Assay: neutralization IC80; higher = virus less sensitive to the antibody
# Description: as §1
row,Binder,neutralization IC80
1,B1,0.641 µg/mL
2,B2,0.024 µg/mL
3,B3,0.026 µg/mL
4,B4,0.036 µg/mL
5,B5,0.452 µg/mL
6,B6,0.172 µg/mL

# Biological target: antibody 3BNC117
# Assay: as above
# Description: as §1
row,Binder,neutralization IC80
1,B1,0.909 µg/mL
2,B2,0.584 µg/mL
3,B3,0.586 µg/mL
4,B4,0.512 µg/mL
5,B5,1.1 µg/mL
6,B6,0.26 µg/mL

# Reference: the supplement of paper PMC12637763
